Results on 1 substance are retold here after paper PMC9253517.

This assay concerns the target SARS-CoV-2 Wuhan-Hu-1 RBD (SARS-CoV-2, Wuhan-Hu-1 (GenBank MN985325.1)) (UniProt P0DTC2).

For the substance JR047 (antibody), the neutralisation IC50, Wuhan-Hu-1 pseudovirus was greater than 1000 ng/mL.
